# Screening data, single-dose tests

Values are the deposited “Percent Effect”, in %. The record does not define 0% and 100%; most values in the screen are far below 50% and negative numbers occur (in some assays of this library far below -100). Many other results are left out here, so strong results are more common than in the screen. Two or more numbers in one place are separate tests of the same structure; such repeats can differ widely.

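Growth of Mycobacterium tuberculosis over 3 days (7H9 medium with glucose and tyloxapol); the read-out is not stated. Compounds at 50 µM. The record gives no direction; compounds that gave an IC50 in retests scored well above the rest, so higher reads as more growth inhibition. Of about 69,000 compounds tested this way, about 760 (1.1%) reached 50% or more in at least one test.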

Result for COCC(C)NC(=O)c1nnn(-c2ccc(Br)cc2)n1 (centres unmarked) was 14.13%.
Result for O=C(O)C(F)(F)F.c1ccc(C[C@H]2CN(Cc3nccs3)CC[C@@H]2OCC2CC2)cc1 was 9.688%.
Result for CN(CCCc1cnn(C)c1)C(=O)Nc1cccc2[nH]nnc12 was -9.774%.
Result for CCOCc1nnc(NCc2cccnc2)o1 was -31.86%.
Result for CN(CC1COc2ccccc2O1)C(=O)C1=NN(C)C(=O)CC1 (centres unmarked) was -5.883% and 18.84%.
Result for Cc1ccccc1N1CCN(c2nc(N(C)C)nc3c2CCNC3)CC1 was 55.72%.
Result for CCc1nnc(CN(C)CC2CCCCC2)o1 was 61.38%.
Result for CN1CCN(CC(NCc2ccc(F)cc2)c2ccccc2)CC1 (centres unmarked) was -17.62%.
Result for NC(CC1CCCC1)c1ccc(Oc2ccccc2)cc1 (centres unmarked) was 111.5%.
Result for Cc1csc(CNC(=O)NCc2ccc3c(c2)OCCO3)n1 was 4.6%.
Result for CC(C)c1nnc(NCc2ccsc2)o1 was 16.23%.
Result for O=C(CSc1nncs1)N1CCN(Cc2ccc(Cl)s2)CC1 was 46.45% and 40.25%.
Result for Cc1cc(C[C@@H]2COC[C@H]2NCc2ccc(C(C)C)cc2)on1.O=C(O)CC(O)(CC(=O)O)C(=O)O was 49.64%.
Result for COc1ccc(Oc2ccc(C(F)(F)F)cn2)cc1CN1CCCC1 was 34.57%.
Result for CCOC(=O)c1ccc(N2CCN(Cc3c(C)nn(C)c3Cl)CC2)nc1 was 16.89% and 23.31%.
Result for CN(C)c1ccc(C(=O)NCCCNc2ccc(C(F)(F)F)cn2)cc1 was 26.77%.
Result for CCc1c(C)n(C)c2nc3ccccc3n2c1=O was -10.73% and -5.159%.
Result for CNC(=O)NC(C)c1nc(-c2ccc(Br)cc2)no1 (centres unmarked) was -10.18%.
Result for CCC(=O)c1cccc(S(=O)(=O)NC(C)C#N)c1 (centres unmarked) was -2.893% and 0.4562%.
Result for CCC(=O)c1ccc(OCC(=O)NCC2CCCO2)cc1 (centres unmarked) was 3.254%.
Result for Cc1cc(C)cc(OCCNC(=O)C(C)Sc2nncn2C)c1 (centres unmarked) was 3.75%.
Result for Cn1cccc1C(O)CNC(=O)c1ccc(C(F)(F)F)cc1 (centres unmarked) was 9.228%.
Result for CSc1ncccc1C(=O)NCCC(O)c1cc(C)oc1C (centres unmarked) was 18.95% and -4.452%.
Result for COc1cccc(NC(C(N)=O)c2ccc(Br)cc2)c1 (centres unmarked) was 3.175% and 12.71%.
Result for Cc1ccccc1-n1c(C)cc(=O)[nH]c1=O was -9.919%.
Result for CN(Cc1cccc(Cl)c1)S(=O)(=O)N1CCOCC1 was 5.727% and 12.42%.
Result for COCCN(C)CC1CCCN1S(=O)(=O)c1cccc(F)c1F (centres unmarked) was 54.18% and 44.81%.
Result for CC(=O)N1CCc2ccc(NC(=O)c3cn(C)nn3)cc2C1 was 24.96%.
Result for CCN1CC(COC(=O)c2cc(Br)ccc2F)CC1=O (centres unmarked) was 30.68%.
Result for N#Cc1ccc(NCc2cccc(OCC3CCCO3)c2)nc1 (centres unmarked) was 34.32%.
Result for CN1CCN(CC(NCc2cccc(O)c2)c2ccccc2)CC1 (centres unmarked) was -3.572%.
Result for O=C(c1noc2c1CCCC2)N1CCCC(c2nccs2)C1 (centres unmarked) was 25.89%.
Result for CC(=O)c1c(F)cccc1N1CCC(Cc2cccnc2)CC1 was 51.31%.
Result for CNC(=O)NC(=O)CSC(C)c1ccccc1F (centres unmarked) was -17.51%.
Result for O=C(Cn1ccc2ccccc21)N1CCC(Oc2ncccc2Br)CC1 was 17.39% and 30.23%.
Result for CN(Cc1ccco1)C(=O)CN1CCN(C)c2ccccc2C1 was 8.043%.
Result for CCCN1CCC(Nc2cc(-c3ccccc3)ccc2OC)CC1 was 71.32%.
Result for Clc1ccc(COCC2CCN(Cc3ccccn3)CC2)cc1.O=C(O)C(=O)O was 49.03%.
Result for CN1CCOC[C@H]1c1nc(-c2cccnc2)c[nH]1 was 61.91% and 17.59%.
Result for Cc1cccc(NC(=O)C(C)Oc2ccc3c(c2)OCO3)n1 (centres unmarked) was 54.91%.

2 of the entries, repeated:

{"smiles": "Cc1csc(CNC(=O)NCc2ccc3c(c2)OCCO3)n1", "Percent Effect": 4.6}
{"smiles": "CNC(=O)NC(C)c1nc(-c2ccc(Br)cc2)no1", "stereo": "centres unmarked", "Percent Effect": -10.18}

Data taken from ChEMBL document CHEMBL3988442, “University of Dundee, Small-Polar-MMV Screening Library” (2021).